Measured values reported in article PMC10328928.

Test system: sNTD (A3G NTD solubility-enhanced variant) + VCBC (Vif-CBFbeta-ELOB-ELOC)
Experiment: pull-down (GST)
Details: RNA-mediated sNTD-VCBC complex, Pull-down: 25 mM sodium phosphate pH 7.3, 150 mM NaCl, 0.5 mM TCEP, 10 uM proteins, 20 uM oligo, room temperature, recombinant protein, protein details: GST

Sequence | binding result (letters put together from the description) | binding result
CGGAAGAUCGUUGGAACAAA [RNA-I-20] | binds | 
GCUAAACUGACGGAAGAUCGUUGGAACAAA [RNA-I-30] |  | binds

For at least one entry, the source does not settle the construct or the ends of the probe.
